{"source": "PubChem BioAssay AID1259414 (Drosophila RNAi Screening Center, 2018)", "aim": "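Genome-wide screen for host control of endosymbiont load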 (primary screen)", "cells": "Drosophila JW18 cells infected with Wolbachia", "reagent": "long dsRNA against Drosophila genes, 0.25 µg dsRNA per well of a 384-well plate", "time to read-out": "5 days", "challenge": "cells persistently infected with Wolbachia before knock-down; no added drug", "measurement": "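Automated imaging of bacterial rRNA staining divided by host cell count, reported as plate-normalised robust z-score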", "reading the numbers": "Wolbachia per cell robust z: higher = more Wolbachia per host cell than the plate typical", "rule for the call": "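Hit when robust z is 1.5 or more, or -1.5 or less, in at least two of three replicates; excludes dsRNAs with several or no targets, genes not expressed in JW18 and well A1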", "note": "The deposit covers about 24,000 reagents; shown is a random part of those that have a named target and a result. In the full data, about 1,210 (5%) are marked active. 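Inactive calls also include excluded dsRNAs with several or no targets, genes unexpressed in JW18, and well A1, regardless of score.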 The numbers tell different reagents against one gene apart. A plus sign joins genes that one reagent is predicted to hit."}
{"target": "Spn77Bc", "reagent": 1, "Wolbachia per cell robust z, rep 1": 0.828, "Wolbachia per cell robust z, rep 2": 0.873, "Wolbachia per cell robust z, rep 3": 0.324, "call": "inactive"}
{"target": "dnc", "reagent": 1, "Wolbachia per cell robust z, rep 1": -3.56, "Wolbachia per cell robust z, rep 2": -0.747, "Wolbachia per cell robust z, rep 3": -1.06, "call": "inactive"}
{"target": "dnc", "reagent": 2, "Wolbachia per cell robust z, rep 1": -0.446, "Wolbachia per cell robust z, rep 2": -0.169, "Wolbachia per cell robust z, rep 3": -0.633, "call": "inactive"}
{"target": "dnc", "reagent": 3, "Wolbachia per cell robust z, rep 1": 0.266, "Wolbachia per cell robust z, rep 2": 0.663, "Wolbachia per cell robust z, rep 3": -2.51, "call": "inactive"}
{"target": "dnc", "reagent": 4, "Wolbachia per cell robust z, rep 1": -1.28, "Wolbachia per cell robust z, rep 2": -1.02, "Wolbachia per cell robust z, rep 3": -1.11, "call": "inactive"}
{"target": "PXo", "reagent": 1, "Wolbachia per cell robust z, rep 1": 0.377, "Wolbachia per cell robust z, rep 2": 0.553, "Wolbachia per cell robust z, rep 3": -0.436, "call": "inactive"}
{"target": "RpS19a", "reagent": 1, "Wolbachia per cell robust z, rep 1": 3.81, "Wolbachia per cell robust z, rep 2": 2.57, "Wolbachia per cell robust z, rep 3": 3.93, "call": "active"}
{"target": "Ostgamma", "reagent": 1, "Wolbachia per cell robust z, rep 1": -0.621, "Wolbachia per cell robust z, rep 2": -3.65, "Wolbachia per cell robust z, rep 3": -1.65, "call": "active"}
{"target": "PolH", "reagent": 1, "Wolbachia per cell robust z, rep 1": -2.1, "Wolbachia per cell robust z, rep 2": -1.35, "Wolbachia per cell robust z, rep 3": 0.683, "call": "inactive"}
{"target": "sol", "reagent": 1, "Wolbachia per cell robust z, rep 1": 0.185, "Wolbachia per cell robust z, rep 2": 0.304, "Wolbachia per cell robust z, rep 3": -0.226, "call": "inactive"}
{"target": "sol", "reagent": 2, "Wolbachia per cell robust z, rep 1": 1.1, "Wolbachia per cell robust z, rep 2": 1.35, "Wolbachia per cell robust z, rep 3": 0.698, "call": "inactive"}
{"target": "His4:CG33881 + His4:CG33897 + His4:CG33887 + 20 more", "reagent": 1, "Wolbachia per cell robust z, rep 1": 0.404, "Wolbachia per cell robust z, rep 2": 0.639, "Wolbachia per cell robust z, rep 3": 0.488, "call": "inactive"}
